Results of unrelated studies side by side (data: NIAID ChemDB).

Shared fields: tests on isolated targets; agent: HIV-1; target: Protease

ICn: concentration for n% inhibition. Rows are shuffled and stem from different studies. Fold resistance has wild type as its base. Inhibition is in % at the dose shown (toxicity tests: loss of growth or viability).

CC(C)CC(=O)NCCCCC(C)(C)CN(C[C@@H](O)[C@H](Cc1ccccc1)NC(=O)O[C@H]1CO[C@H]2OCC[C@H]21)S(=O)(=O)c1ccc2c(c1)OCO2 ; measure: Ki ; read by: fluorescence ; value: <0.001 µM
CC[C@@H](C)[C@H](NC(=O)[C@@H]1CCCN1C(=O)[C@@H](O)[C@H](Cc1ccccc1)NC(=O)[C@H](CC(N)=O)NC(=O)c1ccc2ccccc2n1)C(=O)N[C@H](C(N)=O)C(C)C ; tested at: 5 µM ; measure: inhibition ; value: 99.2%
C=CCCOC(=O)NCCCCCC(C)(C)CN(C[C@@H](O)[C@H](Cc1ccccc1)NC(=O)O[C@H]1CO[C@H]2OCC[C@H]21)S(=O)(=O)c1ccc2c(c1)OCO2 ; measure: Ki ; read by: fluorescence ; value: <0.001 µM
CSC[C@H](NC(=O)COc1cccc2ccccc12)C(=O)N[C@@H](Cc1ccccc1)[C@H](O)C(=O)N1CSC(C)(C)[C@H]1C(=O)NC(C)(C)C ; measure: IC50 ; value: <0.05 µM
CC(C)C[C@H](NC(=O)[C@@H](NC(=O)CCCCCCCCCCCCCCC(=O)N[C@@H](CC(N)=O)C(=O)N[C@@H](Cc1ccccc1)C(=O)O)C(C)O)C(=O)N[C@@H](Cc1ccc(-c2ccccc2)cc1)C(N)=O ; measure: IC50 ; value: 1.1 µM
COCCOC(=O)NCCCCC(C)(C)CN(C[C@@H](O)[C@H](Cc1ccccc1)NC(=O)O[C@H]1CO[C@H]2OCC[C@H]21)S(=O)(=O)c1ccc2c(c1)OCO2 ; measure: Ki ; read by: fluorescence ; value: <0.001 µM
CC(C)C[C@H](NC(=O)CCCCCCCCCCCCCCC(=O)N[C@H](C(=O)N[C@@H](CC(C)C)C(=O)N[C@@H](Cc1ccccc1)C(N)=O)C(C)O)C(=O)N[C@@H](Cc1ccccc1)C(=O)O ; measure: IC50 ; value: 1.47 µM
COc1ccc(S(=O)(=O)NCCCC(C)(C)CN(C[C@@H](O)[C@H](Cc2ccccc2)NC(=O)O[C@H]2CO[C@H]3OCC[C@H]32)S(=O)(=O)c2ccc3c(c2)OCO3)cc1 ; measure: Ki ; read by: fluorescence ; value: <0.001 µM
CC(C)C[C@H](NC(=O)[C@@H](NC(=O)CCCCCCCCCCCCCCC(=O)N[C@H](C(=O)N[C@@H](Cc1ccccc1)C(=O)O)C(C)C)C(C)O)C(=O)N[C@@H](Cc1ccccc1)C(N)=O ; measure: IC50 ; value: 3.5 µM
COC(=O)[C@H](CC(C)C)N1C[C@@H]2O[C@H](C1=O)[C@H](C(=O)N1CCN(C)CC1)O2 ; tested at: 10 µM ; measure: inhibition ; read by: FRET ; value: 70%
CCCCCC(=O)O[C@H]1CC[C@]2(C)[C@H]3CC=C4[C@@H]5CC(C)(C)CC[C@]5(C(=O)OCc5ccccc5)CC[C@@]4(C)[C@]3(C)CC[C@H]2C1(C)C ; measure: IC50 ; read by: FRET ; value: >1200 µg/mL
CC[C@H](C)[C@H](NC(=O)[C@@H](NC(=O)CCCCCCCCCCCCCCC(=O)N[C@@H](CC(N)=O)C(=O)N[C@@H](Cc1ccccc1)C(=O)O)C(C)O)C(=O)N[C@@H](Cc1ccccc1)C(N)=O ; measure: fold resistance ; changes: PR-L10I K45R I54V L63P A71V V82T L90M I93L ; value: ~1
COc1ccc(OC(=O)NCCC(C)(C)CN(C[C@@H](O)[C@H](Cc2ccccc2)NC(=O)O[C@H]2CO[C@H]3OCC[C@H]32)S(=O)(=O)c2ccc3c(c2)OCO3)cc1 ; measure: Ki ; read by: fluorescence ; value: <0.001 µM
CC(C)(C)NC(=O)[C@@H]1Cc2ccccc2N1C(=O)[C@@H](O)[C@H](Cc1ccccc1)NC(=O)[C@H](CC(N)=O)NC(=O)OCc1ccccc1 ; tested at: 5 µM ; measure: inhibition ; value: 4.8%
CC(C)C[C@H](NC(=O)[C@@H](NC(=O)CCCCCCCCCCCCCCC(=O)N[C@@H](CC(N)=O)C(=O)N[C@@H](Cc1ccccc1)C(=O)O)C(C)O)C(=O)N[C@@H](Cc1ccc(O)cc1)C(=O)O ; measure: IC50 ; value: >5.5 µM
CCCCCCCCCCCC(=O)O[C@@H]1C[C@]2(C)[C@H]3CC=C4[C@@H]5CC(C)(C)CC[C@]5(C(=O)O)CC[C@@]4(C)[C@]3(C)CC[C@H]2C(C)(C)[C@H]1O ; measure: IC50 ; read by: FRET ; value: >1200 µg/mL
COC(=O)[C@@H](CC(C)C)N1C[C@@H]2O[C@H](C(=O)N3CCCCC3)[C@@H](O2)C1=O ; tested at: 10 µM ; measure: inhibition ; read by: FRET ; value: 0%
CC(C)C[C@H](NC(=O)[C@@H](NC(=O)CCCCCCCCCCCCCCC(=O)N[C@@H](Cc1ccccc1)C(=O)N[C@@H](Cc1ccccc1)C(=O)O)C(C)O)C(=O)N[C@@H](Cc1ccccc1)C(N)=O ; measure: IC50 ; value: 0.48 µM
CN1CCN(C(=O)[C@@H]2O[C@@H]3CN(Cc4ccccc4)C(=O)[C@H]2O3)CC1 ; tested at: 1 µM ; measure: inhibition ; read by: FRET ; value: 55%
CC1(C)CC[C@]2(C(=O)O)CC[C@]3(C)C(=CC[C@@H]4[C@@]5(C)CC[C@H](OC(=O)c6ccccc6)C(C)(C)[C@@H]5CC[C@]43C)[C@@H]2C1 ; measure: IC50 ; read by: FRET ; value: >1200 µg/mL
CC(C)(CCCCNS(=O)(=O)c1ccc(F)cc1)CN(C[C@@H](O)[C@H](Cc1ccccc1)NC(=O)O[C@H]1CO[C@H]2OCC[C@H]21)S(=O)(=O)c1ccc2c(c1)OCO2 ; measure: Ki ; read by: fluorescence ; value: <0.001 µM
CC(C)C[C@H](NC(=O)[C@@H](NC(=O)CCCCCCCCCCCCCCC(=O)N[C@@H](CCCCN)C(=O)N[C@@H](Cc1ccccc1)C(=O)O)C(C)O)C(=O)N[C@@H](Cc1ccccc1)C(N)=O ; measure: IC50 ; value: >5.5 µM
O=C(NCCO)[C@@H]1O[C@@H]2CN(Cc3ccccc3)C(=O)[C@H]1O2 ; tested at: 10 µM ; measure: inhibition ; read by: FRET ; value: 0%
COC(=O)NCCCCC(C)(C)CN(C[C@@H](O)[C@H](Cc1ccccc1)NC(=O)OC1COCOC1)S(=O)(=O)c1ccc(N)cc1 ; measure: Ki ; read by: fluorescence ; value: <0.001 µM
CC[C@@H](C)[C@H](NC(=O)[C@@H]1CCCN1C(=O)[C@@H](O)[C@H](CC1CCCCC1)NC(=O)[C@H](CC(N)=O)NC(=O)c1ccco1)C(=O)N[C@H](C(N)=O)C(C)C ; tested at: 5 µM ; measure: inhibition ; value: 90.7%
CCOC(=O)NCC(=O)NCCC(C)(C)CN(C[C@@H](O)[C@H](Cc1ccccc1)NC(=O)O[C@H]1CO[C@H]2OCC[C@H]21)S(=O)(=O)c1ccc2c(c1)OCO2 ; measure: Ki ; read by: fluorescence ; value: <0.001 µM
CC(=O)O[C@H]1[C@H](O)C[C@]2(C)[C@H]3CC=C4[C@@H]5CC(C)(C)CC[C@]5(C(=O)O)CC[C@@]4(C)[C@]3(C)CC[C@H]2C1(C)C ; measure: IC50 ; read by: FRET ; value: >1200 µg/mL
CC(C)(CCNC(=O)c1ccc2c(c1)OCO2)CN(C[C@@H](O)[C@H](Cc1ccccc1)NC(=O)O[C@H]1CO[C@H]2OCC[C@H]21)S(=O)(=O)c1ccc2c(c1)OCO2 ; measure: Ki ; read by: fluorescence ; value: <0.001 µM
CCC(C)NC(=O)[C@@H]1CCCN1C(=O)[C@@H](O)[C@H](Cc1ccccc1)NC(=O)[C@H](CC(N)=O)NC(=O)OCc1ccccc1 ; measure: IC50 ; value: >0.05 µM
CC(C)C(=O)NCCCC(C)(C)CN(C[C@@H](O)[C@H](Cc1ccccc1)NC(=O)O[C@H]1CO[C@H]2OCC[C@H]21)S(=O)(=O)c1ccc2c(c1)OCO2 ; measure: Ki ; read by: fluorescence ; value: <0.001 µM
CC(C)C[C@H](NC(=O)[C@H](CCS(C)(=O)=O)NC(=O)CCCCCCCCCCCCCCC(=O)N[C@@H](CC(N)=O)C(=O)N[C@@H](Cc1ccccc1)C(=O)O)C(=O)N[C@@H](Cc1ccccc1)C(N)=O ; measure: IC50 ; value: 1.9 µM
N[C@@H](CO)C(=O)N[C@@H](Cc1ccccc1)[C@H](O)C(=O)NCC1CCCCC1 ; tested at: 1000 µM ; measure: inhibition ; value: 4.5%
CNC(=S)NCCC(C)(C)CN(C[C@@H](O)[C@H](Cc1ccccc1)NC(=O)O[C@H]1CO[C@H]2OCC[C@H]21)S(=O)(=O)c1ccc2c(c1)OCO2 ; measure: Ki ; read by: fluorescence ; value: <0.001 µM